Anti-infective test results gathered from many reports (values: NIAID ChemDB through PubChem).

All rows: tests in culture; organism: Aspergillus fumigatus

ECn is the concentration giving n% inhibition of infection, replication or growth. A number after MIC or MFC names an inhibition level or a share of isolates. Blank or dashed fields: not listed here. Neighbouring rows are from separate reports.

| compound | read by | measure | strain | value |
|---|---|---|---|---|
| N#Cc1ccc(Nc2nc(Oc3cccc4cccnc34)nc(N3CCN(c4ccccn4)CC3)n2)cc1C(F)(F)F | agar | MIC | MTCC 343 | 12.5 µg/mL |
| Cc1nc(N)nc(N)c1C#CC1CCCC1 | - | MIC | - | 6.2 µg/mL |
| CCCCCCCS[C@H](C)[C@](O)(Cn1cncn1)c1ccc(F)cc1F | - | MIC | MTU6001 | 0.39 µg/mL |
| COc1cccc2c1C(=O)c1c(O)c3c(c(O)c1C2=O)C[C@@](O)(C(C)=O)C[C@@H]3O[C@H]1C[C@H](N)[C@H](O)[C@H](C)O1 | - | MIC | NCPF 2010 | >100 µM |
| Nc1[nH]c(=O)ncc1F | - | Geometric mean MIC | 17 isolates | 18.8 µg/mL |
| CCCCCS[C@H](C)[C@](O)(Cn1cncn1)c1ccc(F)cc1F | - | MIC | MTU6001 | 0.39 µg/mL |
| Cc1ccc(C(C)C)c(O)c1 | - | MLC | F17 | 0.64 µg/mL |
| COC(=O)N[C@H](C(=O)NN(CCC[C@@]1(Cc2ccccc2)C(=O)N(C2c3ccccc3C[C@H]2O)C[C@H]1O)Cc1ccc(-c2cccnc2)cc1)C(C)(C)C | agar | MIC | RCMB 002003 | 7.8 µg/mL |
| CCCCCCCCS(=O)(=O)[C@H](C)[C@](O)(Cn1cncn1)c1ccc(F)cc1F | - | MIC | MTU6001 | 0.78 µg/mL |
| CC(c1cn(Cc2ccc(F)cc2F)c2ccccc12)n1ccnc1 | - | MIC80 | AF980003 | >100 µg/mL |
| CCOC(=O)c1sc2cc(-c3cc(F)c(Cl)cc3Cl)oc(=O)c2c1N | - | MIC | AF-27 | >100 µg/mL |
| COC(=O)N[C@H](C(=O)NN(CC[C@@]1(Cc2ccccc2)C(=O)N(C2c3ccccc3C[C@H]2O)C[C@H]1O)Cc1ccc(-c2ccncc2)cc1)C(C)(C)C | agar | MIC | RCMB 002003 | 15.6 µg/mL |
| Cc1cc2c3c(N)nc(N)nc3ccc2n1C | - | MIC | - | >50 µg/mL |
| CN(c1cccc(Cl)c1)c1cc2ccccc2[n+](C)c1.[I-] | resazurin | EC50 | ATCC 90906 | >20 µg/mL |
| Fc1ccc(Cn2cc(Cn3ccnc3)c3cc(Br)ccc32)cc1 | - | MIC80 | AF980003 | >100 µg/mL |
| COC(=O)N[C@H](C(=O)NN(CC[C@@]1(Cc2ccccc2)C(=O)N(C2c3ccccc3C[C@H]2O)C[C@@H]1O)Cc1ccc(-c2ccccn2)cc1)C(C)(C)C | agar | MIC | RCMB 002003 | 7.8 µg/mL |
| COc1ccc(N(CCCCCC2CCCCC2)c2ccc[n+](C)c2)cc1.[I-] | resazurin | EC50 | ATCC 90906 | >20 µg/mL |
| CN1CCN(c2nc(Nc3ccc(C#N)c(C(F)(F)F)c3)nc(Oc3cccc4cccnc34)n2)CC1 | agar | MIC | MTCC 343 | 50 µg/mL |
| CSc1cc(-c2ccc(Cl)cc2)c(C(=O)O)s1 | - | MIC | AF-27 | >100 µg/mL |
| COc1cc2ccnc3c2c(c1OC(=O)c1cc(F)ccc1F)N(C)C=C3 | - | EC50 | - | >15 µg/mL |
| Cc1nc(N)nc(N)c1C#CC(C)(C)C | - | MIC | - | 12.5 µg/mL |
| CSc1cc(-c2ccc(-c3cccnc3)cc2)c(C(=O)O)s1 | - | MIC | AF-27 | >100 µg/mL |
| C[C@@H](c1ncncc1F)[C@](O)(Cn1cncn1)c1ccc(F)cc1F | broth dilution | MIC | ATCC 204305 | 1 µg/mL |
| CCCCCCS[C@H](C)[C@](O)(Cn1cncn1)c1ccc(F)cc1F | - | MIC | MTU6001 | ≤0.2 µg/mL |
| Cc1c(C(C)n2ccnc2)c2ccccc2n1Cc1ccc(Br)cc1 | - | MIC80 | AF980003 | >100 µg/mL |
| CCC(O)(C#Cc1c(C)nc(N)nc1N)CC | - | MIC | - | >50 µg/mL |
| COC(=O)N[C@H](C(=O)NN(CC[C@@]1(Cc2ccccc2)C(=O)N(C2c3ccccc3C[C@H]2O)C[C@H]1O)Cc1ccc(-c2cccnc2)cc1)C(C)(C)C | agar | MIC | RCMB 002003 | 15.6 µg/mL |
| CCCCCc1ccc(C(=O)Oc2c(OC)cc3ccnc4c3c2N(C)C=C4)cc1 | - | MIC | - | 10 µg/mL |
| C[n+]1c2ccc(Cl)cc2cc2[nH]c3ccccc3c21 | resazurin | EC50 | ATCC 90906 | >10 µg/mL |
| COC(=O)N[C@H](C(=O)NN(CC[C@]1(Cc2ccccc2)C(=O)N(C2c3ccccc3C[C@H]2O)C[C@@H]1O)Cc1ccc(Br)cc1)C(C)(C)C | agar | MIC | RCMB 002003 | 15.6 µg/mL |
| CCCCCOc1ccc(-c2ccc(-c3ccc(C(=O)N[C@H]4C[C@@H](O)[C@@H](O)NC(=O)[C@@H]5[C@@H](O)[C@@H](C)CN5C(=O)[C@H]([C@H](C)O)NC(=O)[C@H]([C@H](O)[C@@H](O)c5ccc(O)cc5)NC(=O)[C@@H]5C[C@@H](O)CN5C(=O)[C@H]([C@H](C)O)NC4=O)cc3)cc2)cc1 | - | MEC | Isolate AF65 | 0.0018 µg/mL |
| N#Cc1ccc(Nc2nc(Oc3cccc4cccnc34)nc(N3CCCCC3)n2)cc1C(F)(F)F | agar | MIC | MTCC 343 | 50 µg/mL |
| Cc1c(Cn2ccnc2)c2ccccc2n1Cc1ccc(Cl)cc1 | - | MIC80 | AF980003 | 19 µg/mL |
| CCC(C)CC(C)CCCCCCCCC(=O)N[C@H]1C[C@@H](O)[C@H](NCCN)NC(=O)[C@@H]2[C@@H](O)CCN2C(=O)[C@H]([C@H](O)CCN)NC(=O)[C@H]([C@H](O)[C@@H](O)c2ccc(O)cc2)NC(=O)[C@@H]2C[C@@H](O)CN2C(=O)[C@H]([C@@H](C)O)NC1=O | - | Geometric mean MIC | 3 isolates | 219 µg/mL |
| CCc1ccc(C(=O)Oc2c(OC)cc3ccnc4c3c2N(C)C=C4)cc1 | - | EC50 | - | >15 µg/mL |
| COC(=O)N[C@H](C(=O)NN(CC[C@@]1(Cc2ccccc2)C(=O)N(C2c3ccccc3C[C@H]2O[Si](C)(C)C(C)(C)C)C[C@@H]1O[Si](C)(C)C(C)(C)C)Cc1ccc(Br)cc1)C(C)(C)C | agar | MIC | RCMB 002003 | 7.8 µg/mL |
| C[C@H]1[C@H](O)[C@@H](C)/C=C/C=C/C=C/C=C/C=C/C=C/C=C/[C@H](O[C@@H]2O[C@H](C)[C@@H](O)[C@H](N)[C@@H]2O)C[C@@H]2O[C@](O)(C[C@@H](O)C[C@@H](O)CC[C@H](O)[C@@H](O)C[C@@H](O)CC(=O)O[C@H]1C)C[C@H](O)[C@H]2C(=O)O | - | MIC50 | 17 isolates | 1 µg/mL |
| C[n+]1c2ccccc2cc2[nH]c3c(Br)cccc3c21.[I-] | resazurin | EC50 | ATCC 90906 | >20 µg/mL |
| CC(=O)[C@]1(O)Cc2c(O)c3c(c(O)c2[C@@H](O[C@H]2C[C@H](N)[C@H](O)[C@H](C)O2)C1)C(=O)c1ccccc1C3=O | - | MIC | NCPF 2010 | >100 µM |
| CCCS[C@H](C)[C@](O)(Cn1cncn1)c1ccc(F)cc1F | - | MIC | MTU6001 | 0.78 µg/mL |
| CCN(CC)C(=O)Oc1c(OC)cc2ccnc3c2c1N(C)C=C3 | - | EC50 | - | >15 µg/mL |
| C[C@@H]1C/C=C/C=C/C=C/C=C/[C@H](OC2O[C@H](C)[C@@H](O)[C@H](N)[C@@H]2O)CC2O[C@](O)(C[C@@H](O)C[C@H]3O[C@@H]3/C=C/C(=O)O1)C[C@H](O)[C@H]2C(=O)O | - | MIC90 | Species complex | 4 µg/mL |
| CC(C)N1CCN(c2nc(Nc3ccc(C#N)c(C(F)(F)F)c3)nc(Oc3cccc4cccnc34)n2)CC1 | agar | MIC | MTCC 343 | 50 µg/mL |
| C[C@@H](c1nc(-c2ccc(C#N)cc2)cs1)[C@](O)(Cn1cncn1)c1ccc(F)cc1F | - | Geometric mean MIC | 50 isolates | 1.27 µg/mL |
| COc1cc2ccnc3c2c(c1OC(=O)c1ccc(C#N)cc1)N(C)C=C3 | - | EC50 | - | >15 µg/mL |
| COC(=O)N[C@H](C(=O)NN(CC[C@@]1(Cc2ccccc2)C(=O)N(C2c3ccccc3C[C@H]2O)C[C@@H]1O)Cc1ccc(-c2ccncc2)cc1)C(C)(C)C | agar | MIC | RCMB 002003 | 7.8 µg/mL |
| COC(/C=C/c1cccs1)=C1/C(=O)C=C(C)C1=O | - | MIC | ATCC 90906 | >20 µg/mL |
| CCOC(=O)c1sc2cc(-c3ccc(Cl)cc3)oc(=O)c2c1N | - | MIC | AF-27 | >100 µg/mL |
| Cc1c(Cn2ccnc2)c2ccccc2n1Cc1ccc(F)cc1 | - | MIC80 | AF980003 | >100 µg/mL |

A second listing of 6 rows from above:

| compound | read by | measure | strain | value |
|---|---|---|---|---|
| Cc1nc(N)nc(N)c1C#CC(C)(C)C | - | MIC | - | 12.5 µg/mL |
| CCCCCCS[C@H](C)[C@](O)(Cn1cncn1)c1ccc(F)cc1F | - | MIC | MTU6001 | ≤0.2 µg/mL |
| COc1cccc2c1C(=O)c1c(O)c3c(c(O)c1C2=O)C[C@@](O)(C(C)=O)C[C@@H]3O[C@H]1C[C@H](N)[C@H](O)[C@H](C)O1 | - | MIC | NCPF 2010 | >100 µM |
| Cc1c(Cn2ccnc2)c2ccccc2n1Cc1ccc(Cl)cc1 | - | MIC80 | AF980003 | 19 µg/mL |
| CC(c1cn(Cc2ccc(F)cc2F)c2ccccc12)n1ccnc1 | - | MIC80 | AF980003 | >100 µg/mL |
| N#Cc1ccc(Nc2nc(Oc3cccc4cccnc34)nc(N3CCCCC3)n2)cc1C(F)(F)F | agar | MIC | MTCC 343 | 50 µg/mL |